Measured values from several laboratories, pooled; numbers as filed in NIAID ChemDB.

Common to all: whole-cell or culture tests; species: Hepatitis C virus; measure: EC50

ECn is the concentration giving n% inhibition of infection, replication or growth.

compound,read by,strain,setting,cell line,result
CCc1nc(N)nc2ccc(-c3ccc(N4CCCC4=O)cc3)nc12,replicon,,,Huh7,<0.3 µM
CC1(C)CC(=O)C2=C(C1)Nc1c(O)cccc1N(C(=O)c1cccc(C#N)c1)C2c1ccc(OCc2ccccc2)cc1F,luciferase / reporter gene / replicon,1b,,,0.88 µM
CCCC(NC(=O)[C@@H]1C2CCCC2CN1C(=O)[C@@H](NC(=O)[C@@H](NC(=O)Cc1nn[nH]n1)C1CCCCC1)C(C)(C)C)C(=O)C(=O)NC1CC1,,,,,>50 µM
CC1(C)CC(=O)C2=C(C1)Nc1c(O)cccc1NC2c1ccc(OCc2ccccc2Cl)cc1Cl,luciferase / reporter gene / replicon,1b,,,2.14 µM
Nc1ncnc2c1ncn2C1C[C@H]2C[C@@H]1c1ccsc12,replicon,1b,,Huh,3 µM
Cn1c(=O)cc(Sc2ccc(C(C)(C)C)cc2)c2ccccc21,luciferase / replicon,,,Huh-Luc-Neo,1–10 µM
C=CC[C@](C)(NC(=O)[C@H]1C[C@@H](Oc2cc3c(Cl)nccc3c3c2OCO3)CN1C(=O)[C@@H](NC(=O)OC(C)(C)C)C(C)(C)C)C(=O)NS(=O)(=O)C1CC1,replicon,BMS,,Huh7,<0.1 µM
COC(=O)N[C@H](C(=O)N1CC2(CC2)C[C@H]1c1ncc(-c2ccc3c(c2)C(F)(F)c2cc(-c4ccc5nc([C@@H]6[C@H]7CC[C@H](C7)N6C(=O)[C@@H](NC(=O)OC)C(C)C)[nH]c5c4)ccc2-3)[nH]1)C(C)C,replicon,Genotype 2,,HCV replicon,0.021 µM
COc1ccc2c(c1)C=C(C(=O)N1CC3CCC(C1)N3C)Cn1c-2c(C2CCCCC2)c2ccc(C(=O)NS(=O)(=O)N(C)C)cc21,replicon,,,,0.001–0.5 µM
CC1(C)CC(=O)C2=C(C1)Nc1c(O)cccc1N(C(=O)c1ccc(C#N)cc1)[C@H]2c1ccc(OCc2ccccc2)cc1F,luciferase / reporter gene / replicon,1b,,,2.08 µM
Nc1nc(C2CC2)c2nc(-c3ccc(N4CCCC4=O)cc3)ccc2n1,replicon,,,Huh7,<0.3 µM
Clc1ncnc2c1ncn2C1C[C@H]2C[C@@H]1[C@H]1CSC[C@@H]21,replicon,1b,,Huh,9 µM
COc1ccc2c(c1)C=C(C(=O)N1C3CCC1CN(C)C3)Cn1c-2c(C2CCCCC2)c2ccc(C(=O)NS(=O)(=O)C3CC3)cc21,replicon,,,,0.001–0.5 µM
CO[C@@H]1[C@H](OP(=O)(NCCCCCC(=O)[O-])OC[C@H]2O[C@@H](n3ccc(N)nc3=O)[C@H](O)[C@@H]2O)[C@@H](CO)O[C@H]1n1cnc2c(=O)[nH]c(N)nc21,,,,,160 µM
CCCC(NC(=O)[C@@H]1C[C@@H](OC(=O)N2CCc3ccccc3C2)CN1C(=O)[C@@H](NC(=O)[C@@H](NC(=O)CCCCC(=O)O)C(C)C)C(C)C)C(=O)C(=O)NC1CC1,,,,,>50 µM
COc1ccc(-c2nc3ccc(NCc4ccc(Cl)c(C(F)(F)F)c4)cc3n(CCNC(C)=O)c2=O)cc1,PCR,GT1a,,Huh7,0.0058 µM
C=C[C@@H]1C[C@]1(NC(=O)[C@@H]1C[C@@H](Oc2nccc3cc(OC)ccc23)CN1C(=O)[C@@H](NC(C)=O)C(C)(C)C)C(=O)NS(=O)(=O)C1CC1,replicon,BMS,,Huh7,0.1–1 µM
CC1(C)CC(=O)C2=C(C1)Nc1c(O)cccc1N(C(=O)C(N)=O)C2c1ccc(OCc2ccccc2)cc1F,luciferase / reporter gene / replicon,1b,,,9.12 µM
CN1CCN(c2cc3c(cc2F)c(=O)c(-c2noc(C(CC(N)=O)c4ccccc4)n2)cn3Cc2ccc(Cl)cc2)CC1,replicon,1b,,,>10 µM
CC(C)Cc1nc(N)nc2ccc(-c3ccc(F)cc3)nc12,replicon,,,Huh7,<0.3 µM
C=CC[C@](C)(NC(=O)[C@H]1C[C@@H](Oc2nccc3occc23)CN1C(=O)[C@@H](NC(=O)OC(C)(C)C)C(C)(C)C)C(=O)NS(=O)(=O)C1CC1,replicon,BMS,,Huh7,0.1–1 µM
CC1=CC[C@H](C(=O)N(c2cc(C#CC(C)(C)C)sc2C(=O)O)C2CCC(O)(CO[C@H]3CCOC3)CC2)CC1,luciferase,H77 (GT1a),,Huh7,0.009 µM
COC(=O)c1ccc2c(C3CCCCC3)c3n(c2c1)CC(C(=O)N1C2CCC1CN(C)C2)=Cc1c(OC(F)(F)F)cccc1-3,replicon,,,,>0.5 µM
Nc1nc(C2CC2)c2nc(-c3ccc(F)cc3)ccc2n1,replicon,,,Huh7,<0.3 µM
Clc1ncnc2c1ncn2C1C[C@H]2C[C@@H]1c1cscc12,replicon,1b,,Huh,14 µM
Nc1ccc(S(=O)(=O)/N=C2/NC(=O)/C(=C/c3ccccc3Cl)S2)cc1,luciferase,1b,,Huh 5-2,95.67 µM
C=C[C@@H]1C[C@]1(NC(=O)[C@@H]1C[C@@H](Oc2noc3c(OC)cccc23)CN1C(=O)[C@@H](NC(=O)OC(C)(C)C)C(C)(C)C)C(=O)NS(=O)(=O)C1CC1,replicon,BMS,,Huh7,0.1–1 µM
C=C1C[C@]1(NC(=O)[C@@H]1C[C@@H](Oc2cc(-c3ccccc3)nc3cc(OC)ccc23)CN1C(=O)[C@@H](NC(=O)OC(C)(C)C)C(C)(C)C)C(=O)NS(=O)(=O)c1ccccc1F,replicon,1b,,Huh7,<0.5 µM
CC(C)c1nc(N)nc2ccc(-c3ccc(F)cc3)nc12,replicon,,,Huh7,<0.3 µM
COc1ccc(/C=C2\S/C(=N/S(=O)(=O)c3ccc(Cl)cc3)NC2=O)cc1,luciferase,1b,,Huh 5-2,>71.07 µM
Cc1nc(N)nc2ccc(-c3ccc(F)cc3)nc12,replicon,,,Huh7,<0.3 µM
C=CC[C@](C)(NC(=O)[C@H]1C[C@@H](Oc2nc3ccccc3[nH]c2=O)CN1C(=O)[C@@H](NC(=O)OC(C)(C)C)C(C)(C)C)C(=O)NS(=O)(=O)C1CC1,replicon,BMS,,Huh7,10–100 µM
C=C[C@@H]1C[C@]1(NC(=O)[C@@H]1C[C@@H](Oc2cc(-c3ccccc3)nc3cc(OC)ccc23)CN1C(=O)[C@@H](NC(=O)OC(C)(C)C)C(C)(C)C)C(=O)NS(=O)(=O)c1c(Cl)cccc1Cl,replicon,1b,,Huh7,<0.5 µM
CN1CCN(c2cc3c(cc2F)c(=O)c(-c2noc(C4(c5ccccc5)CC4)n2)cn3C2(c3ccc(C(F)(F)F)cc3)CC2)CC1,replicon,1b,,,<2 µM
Clc1ncnc2c1ncn2C1C[C@H]2C[C@@H]1[C@@H]1CSC[C@H]21,replicon,1b,,Huh,10 µM
Cc1ccc(S(=O)(=O)/N=C2\NC(=O)/C(=C/c3ccccc3Cl)S2)cc1,luciferase,1b,,Huh 5-2,44.02 µM
Cn1c(=O)cc(Sc2cc(Cl)ccc2Cl)c2ccccc21,luciferase / replicon,,,Huh-Luc-Neo,10–100 µM
Nc1ncnc2c1ncn2[C@@H]1C[C@H](CO)[C@@H](CO)C12CC2,luciferase,,,Huh7,>50 µM
COc1ccc2c(c1)C=C(C(=O)N1C3CCC1CN(C)C3)Cn1c-2c(C2CCCCC2)c2ccc(C(=O)NS(=O)(=O)N(C)C)cc21,replicon,,,,0.001–0.5 µM
CN1CCN(c2cc3c(cc2F)c(=O)c(-c2noc(Cc4ccccc4)n2)cn3Cc2ccc(C(F)(F)F)cc2)CC1,replicon,1b,,,<2 µM
COc1cccc2c1C=C(C(=O)N1CC3CCC(C1)N3)Cn1c-2c(C2CCCCC2)c2ccc(C(=O)NS(=O)(=O)N(C)C)cc21,replicon,,,,0.001–0.5 µM
OCc1nc(-c2cnc(N3CCC(Oc4ccccc4C(F)(F)F)CC3)s2)no1,PCR,SGR (gt 1b),,Huh7,0.062 µM
COc1ccc(Sc2cc(=O)n(C)c3ccccc23)cc1,luciferase / replicon,,,Huh-Luc-Neo,1–10 µM
CCCN(CCC)CCSc1nnc2c(n1)[nH]c1ccccc12,cytopathic effect,genotype 1b,,Huh 5-2,>50 µM
COc1ccc2c(c1)C=C(C(=O)N1C3CCC1CN(C)C3)Cn1c-2c(C2CCCCC2)c2ccc(C(=O)O)cc21,replicon,,,,0.001–0.5 µM
Cn1nc(C(=O)N2c3cccc(O)c3NC3=C(C(=O)CC(C)(C)C3)C2c2ccc(OCc3ccccc3)cc2F)cc1-c1cccs1,luciferase / reporter gene / replicon,1b,,,2.19 µM
C=C[C@@H]1C[C@]1(NC(=O)[C@@H]1C[C@@H](Oc2cc(-c3ccccc3)nc3cc(OC)ccc23)CN1C(=O)[C@@H](NC(=O)OC(C)(C)C)C(C)(C)C)C(=O)NS(=O)(=O)c1ccc(OC)cc1,replicon,1b,,Huh7,<0.05 µM
Cc1ccc(Sc2cc(=O)n(C)c3ccc(F)cc23)cc1,luciferase / replicon,,,Huh-Luc-Neo,1–10 µM
Nc1ncnc2c1ncn2[C@@H]1O[C@H](CO)[C@@H](O)[C@H]1CO,luciferase,1b,,Huh7,>88 µM
CC(C)(c1ccccc1)c1nc(-c2cn(Cc3ccc(C(F)(F)F)cc3)c3cc(N4CCSCC4)c(F)cc3c2=O)no1,replicon,1b,,,<2 µM
C=CC[C@](C)(NC(=O)[C@H]1C[C@@H](Oc2nc(-c3ccoc3)c(OC)c3ccccc23)CN1C(=O)[C@@H](NC(=O)OC(C)(C)C)C(C)(C)C)C(=O)NS(=O)(=O)C1CC1,replicon,BMS,,Huh7,<0.1 µM
C=CC1CC1(NC(=O)[C@@H]1C[C@@H](Oc2cc(-c3ccccc3)nc3cc(OC)ccc23)CN1C(=O)[C@@H](NC(=O)OC(C)(C)C)C(C)(C)C)C(=O)NS(C)(=O)=O,replicon,1b,,Huh7,<0.5 µM
C1=C[C@@H](c2ncc(-c3ccc(-c4ccc(-c5cnc([C@@H]6C=CCN6)[nH]5)cc4)cc3)[nH]2)NC1,luciferase,1b,,ET,1.7 µM
O=C(O)C(=O)/C=C(\O)c1ccc(OCc2ccccc2)cc1,replicon,,,Huh-7 hepatoma cells,0.66 µM
C=C[C@@H]1C[C@]1(NC(=O)[C@@H]1C[C@@H](Oc2cc(-c3ccccc3)nc3cc(OC)ccc23)CN1C(=O)[C@@H](NC(=O)CC)C(C)(C)C)C(=O)NS(=O)(=O)C1CC1,replicon,1b,,Huh7,<0.05 µM
Cn1c(=O)cc(Sc2ccc(Br)cc2)c2cc(Cl)ccc21,luciferase / replicon,,,Huh-Luc-Neo,1–10 µM
C=C[C@@H]1C[C@]1(NC(=O)[C@@H]1C[C@@H](Oc2cc(-c3ccccc3)nc3cc(OC)ccc23)CN1C(=O)[C@@H](NC(=O)OC(C)(C)C)C(C)(C)C)C(=O)NS(=O)(=O)c1ccccc1Cl,replicon,1b,,Huh7,<0.5 µM
Cc1ccc(Sc2cc(=O)n(C)c3ncccc23)cc1,luciferase / replicon,,,Huh-Luc-Neo,<1 µM
O=c1c(-c2noc(Cc3ccccc3)n2)cn(Cc2ccc(C(F)(F)F)cc2)c2cc(-n3ccnc3)c(F)cc12,replicon,1b,,,<2 µM
OCc1nnc(-c2ccc(N3CCC(Oc4cc(F)ccc4Br)CC3)nn2)o1,PCR,GT1b,50% human serum,Huh7,>40 µM
Nc1ncnc2c1ncn2[C@@H]1C[C@H](CO)[C@@H](O)C12CC2,luciferase,,,Huh7,44.1 µM

6 of the rows above, restated:

compound	read by	strain	setting	cell line	result
COc1ccc2c(c1)C=C(C(=O)N1CC3CCC(C1)N3C)Cn1c-2c(C2CCCCC2)c2ccc(C(=O)NS(=O)(=O)N(C)C)cc21	replicon				0.001–0.5 µM
Cn1c(=O)cc(Sc2ccc(Br)cc2)c2cc(Cl)ccc21	luciferase / replicon			Huh-Luc-Neo	1–10 µM
C=C[C@@H]1C[C@]1(NC(=O)[C@@H]1C[C@@H](Oc2cc(-c3ccccc3)nc3cc(OC)ccc23)CN1C(=O)[C@@H](NC(=O)OC(C)(C)C)C(C)(C)C)C(=O)NS(=O)(=O)c1c(Cl)cccc1Cl	replicon	1b		Huh7	<0.5 µM
COc1ccc2c(c1)C=C(C(=O)N1C3CCC1CN(C)C3)Cn1c-2c(C2CCCCC2)c2ccc(C(=O)NS(=O)(=O)N(C)C)cc21	replicon				0.001–0.5 µM
Nc1ncnc2c1ncn2C1C[C@H]2C[C@@H]1c1ccsc12	replicon	1b		Huh	3 µM
CC(C)Cc1nc(N)nc2ccc(-c3ccc(F)cc3)nc12	replicon			Huh7	<0.3 µM

An empty or dashed field is not shown. a–b is a range or a potency band. Conditions beyond the fields shown may differ between rows.